# What was measured:
# Assay in all cases: cell-based or functional assay
# [1] = biological target: HIV-1 envelope glycoprotein gp120 of virus 92HT593 (HIV-1)
# [2] = biological target: HIV-1 envelope glycoprotein gp120 of virus REJO (HIV-1)
# [3] = biological target: HIV-1 envelope glycoprotein gp120 of virus THRO (HIV-1)
# [4] = biological target: HIV-1 envelope glycoprotein gp120 of virus 92US712 (HIV-1)
# [5] = biological target: HIV-1 envelope glycoprotein gp120 of virus BaL (HIV-1)
# [6] = biological target: HIV-1 envelope glycoprotein gp120 of virus 8318 (HIV-1)
# [7] = biological target: HIV-1 envelope glycoprotein gp120 of virus 7596 (HIV-1)
# [8] = biological target: HIV-1 envelope glycoprotein gp120 of virus 8359 (HIV-1)
# [9] = biological target: HIV-1 envelope glycoprotein gp120 of virus 7352 (HIV-1)
# [10] = biological target: HIV-1 envelope glycoprotein gp120 of virus CH058 (HIV-1)
# [11] = biological target: HIV-1 envelope glycoprotein gp120 of virus 8320 (HIV-1)
# [12] = biological target: HIV-1 envelope glycoprotein gp120 of virus 7595 (HIV-1)
# [13] = biological target: HIV-1 envelope glycoprotein gp120 of virus CH077 (HIV-1)
# [14] = biological target: HIV-1 envelope glycoprotein gp120 of virus 1413 (HIV-1)
# [15] = biological target: HIV-1 envelope glycoprotein of virus WITO (HIV-1)
# [16] = biological target: HIV-1 envelope glycoprotein gp120 of virus 8398 (HIV-1)
# [17] = biological target: HIV-1 envelope glycoprotein gp120 of virus 7007 (HIV-1)
# [18] = biological target: HIV-1 envelope glycoprotein gp120 of virus CH040 (HIV-1)
# [19] = biological target: HIV-1 envelope glycoprotein gp120 of virus 7576 (HIV-1)
# [20] = biological target: HIV-1 envelope glycoprotein gp120 of virus 7015 (HIV-1)
# [21] = biological target: HIV-1 envelope glycoprotein gp120 of virus 92US657 (HIV-1)
# [22] = biological target: HIV-1 envelope glycoprotein gp120 of virus 8117 (HIV-1)
# [23] = biological target: HIV-1 envelope glycoprotein gp120 of virus 8106 (HIV-1)
# [24] = biological target: HIV-1 envelope glycoprotein gp120 of virus RHPA (HIV-1)
# [25] = biological target: HIV-1 envelope glycoprotein gp120 of virus 1012 (HIV-1)
# [26] = biological target: HIV-1 envelope glycoprotein gp120 of virus 8134 (HIV-1)
# [27] = biological target: HIV-1 envelope glycoprotein gp120 of virus 92US727 (HIV-1)
# [28] = biological target: HIV-1 envelope glycoprotein gp120 of virus 7051 (HIV-1)
# [29] = biological target: HIV-1 envelope glycoprotein gp120 of virus 7141 (HIV-1)
# [30] = biological target: HIV-1 envelope glycoprotein gp120 of virus 7552 (HIV-1)
# [31] = biological target: HIV-1 envelope glycoprotein gp120 of virus 7467 (HIV-1)
# [32] = biological target: HIV-1 envelope glycoprotein gp120 of virus 7103 (HIV-1)
# [33] = biological target: HIV-1 envelope glycoprotein gp120 of virus 1489 (HIV-1)
# [34] = biological target: HIV-1 envelope glycoprotein gp120 of virus 8339 (HIV-1)
# [35] = biological target: HIV-1 envelope glycoprotein gp120 of virus 8110 (HIV-1)
# [36] = biological target: HIV-1 envelope glycoprotein gp120 of virus CH106 (HIV-1)
# [37] = biological target: HIV-1 envelope glycoprotein gp120 of virus 8176 (HIV-1)
# [38] = biological target: HIV-1 envelope glycoprotein gp120 of virus 1003 (HIV-1)
# [39] = biological target: HIV-1 envelope glycoprotein gp120 of virus 8089 (HIV-1)
# [40] = biological target: HIV-1 envelope glycoprotein gp120 of virus 7714 (HIV-1)
Binder,HIV Neutralization Potency [1],HIV Neutralization Potency [2],HIV Neutralization Potency [3],HIV Neutralization Potency [4],HIV Neutralization Potency [5],HIV Neutralization Potency [6],HIV Neutralization Potency [7],HIV Neutralization Potency [8],HIV Neutralization Potency [9],HIV Neutralization Potency [10],HIV Neutralization Potency [11],HIV Neutralization Potency [12],HIV Neutralization Potency [13],HIV Neutralization Potency [14],HIV Neutralization Potency [15],HIV Neutralization Potency [16],HIV Neutralization Potency [17],HIV Neutralization Potency [18],HIV Neutralization Potency [19],HIV Neutralization Potency [20],other results
"Antibody 1.1.90-1 (antibody, human IgG1, kappa, V domains shown) VH: QVQLLQSGAAVTKPGASVRVSCEASGYNIRDYFIHWWRQAPGQGLQWVGWINPKTGQPNNPRQFQGRVSLTRHASWDFDTFSFYMDLKALRSDDTAVYFCARQRSDYWDFDVWGSGTQVTVSS VL: DIQMTQSPSSLSASVGDRATITCQANGYLNWYQQRRGKAPKLLIYDGSKLERGVPSRFSGSRWGQEYNLTISSLQPEDIATYFCQVYEFFGPGTRLDLKR",0.68 µg/mL,0.07 µg/mL,7.42 µg/mL,0.07 µg/mL,0.13 µg/mL,0.21 µg/mL,11.5 µg/mL,0.58 µg/mL,> 50 µg/mL,0.05 µg/mL,0.39 µg/mL,3.71 µg/mL,0.1 µg/mL,3.55 µg/mL,0.07 µg/mL,> 50 µg/mL,> 50 µg/mL,9.57 µg/mL,0.36 µg/mL,1.03 µg/mL,HIV Neutralization Potency [21]: 1.17 µg/mL; HIV Neutralization Potency [22]: 1.14 µg/mL; HIV Neutralization Potency [23]: 0.89 µg/mL; HIV Neutralization Potency [24]: 0.16 µg/mL; HIV Neutralization Potency [25]: 1.4 µg/mL; HIV Neutralization Potency [26]: 1.05 µg/mL; HIV Neutralization Potency [27]: 3.8 µg/mL; HIV Neutralization Potency [28]: 0.19 µg/mL; HIV Neutralization Potency [29]: 2.41 µg/mL; HIV Neutralization Potency [30]: > 50 µg/mL; HIV Neutralization Potency [31]: 0.06 µg/mL; HIV Neutralization Potency [32]: 1.13 µg/mL; HIV Neutralization Potency [33]: 0.24 µg/mL; HIV Neutralization Potency [34]: > 50 µg/mL; HIV Neutralization Potency [35]: 1.65 µg/mL; HIV Neutralization Potency [36]: 1.69 µg/mL; HIV Neutralization Potency [37]: 0.24 µg/mL; HIV Neutralization Potency [38]: 1.92 µg/mL; HIV Neutralization Potency [39]: 0.47 µg/mL; HIV Neutralization Potency [40]: 3.76 µg/mL
"Antibody 1.1.110-1 (antibody, human IgG1, kappa) heavy: QVQLLQSGAAVTKPGASVRVSCEASGYNIRDYFIHWWRQAPGQGLQWVGWINPKTGQPNNPRQFQGRVSLTRHASWDFDTFSFYMDLKALRSDDTAVYFCARQRSDYWDFDVWGSGTQVTVSSASTKGPSVFPLAPSSKSTSGGTAALGCLVKDYFPEPVTVSWNSGALTSGVHTFPAVLQSSGLYSLSSVVTVPSSSLGTQTYICNVNHKPSNTKVDKKVEPKSCDKTHTCPPCPAPELLAGPDVFLFPPKPKDTLMISRTPEVTCVVVDVSHEDPEVKFNWYVDGVEVHNAKTKPREEQYNSTYRVVSVLTVLHQDWLNGKEYKCKVSNKALPLPEEKTISKAKGQPREPQVYTLPPSREEMTKNQVSLTCLVKGFYPSDIAVEWESNGQPENNYKTTPPVLDSDGSFFLYSKLTVDKSRWQQGNVFSCSVLHEALHSHYTQKSLSLSPGK light: not shown",0.5 µg/mL,0.03 µg/mL,6.77 µg/mL,0.06 µg/mL,0.11 µg/mL,0.23 µg/mL,14.9 µg/mL,0.35 µg/mL,> 50 µg/mL,0.04 µg/mL,0.26 µg/mL,3.97 µg/mL,0.03 µg/mL,3.69 µg/mL,0.08 µg/mL,> 50 µg/mL,> 50 µg/mL,6.86 µg/mL,0.5 µg/mL,0.77 µg/mL,HIV Neutralization Potency [21]: 0.69 µg/mL; HIV Neutralization Potency [22]: 1.35 µg/mL; HIV Neutralization Potency [23]: 0.61 µg/mL; HIV Neutralization Potency [24]: 0.2 µg/mL; HIV Neutralization Potency [25]: 1.65 µg/mL; HIV Neutralization Potency [26]: 1.29 µg/mL; HIV Neutralization Potency [27]: > 50 µg/mL; HIV Neutralization Potency [28]: 0.25 µg/mL; HIV Neutralization Potency [29]: > 50 µg/mL; HIV Neutralization Potency [30]: > 50 µg/mL; HIV Neutralization Potency [31]: 0.03 µg/mL; HIV Neutralization Potency [32]: 1 µg/mL; HIV Neutralization Potency [33]: 0.08 µg/mL; HIV Neutralization Potency [34]: > 50 µg/mL; HIV Neutralization Potency [35]: 3.85 µg/mL; HIV Neutralization Potency [36]: 1.33 µg/mL; HIV Neutralization Potency [37]: 0.18 µg/mL; HIV Neutralization Potency [38]: 1.35 µg/mL; HIV Neutralization Potency [39]: 1.3 µg/mL; HIV Neutralization Potency [40]: 2.65 µg/mL
"Antibody 1.1.111-1 (antibody, human IgG1, kappa) heavy: QVQLLQSGAAVTKPGASVRVSCEASGYNIRDYFIHWWRQAPGQGLQWVGWINPKTGQPNNPRQFQGRVSLTRHASWDFDTFSFYMDLKALRSDDTAVYFCARQRSDYWDFDVWGSGTQVTVSSASTKGPSVFPLAPSSKSTSGGTAALGCLVKDYFPEPVTVSWNSGALTSGVHTFPAVLQSSGLYSLSSVVTVPSSSLGTQTYICNVNHKPSNTKVDKKVEPKSCDKTHTCPPCPAPELLAGPDVFLFPPKPKDTLMISRTPEVTCVVVDVSHEDPEVKFNWYVDGVEVHNAKTKPREEQYNSTYRVVSVLTVLHQDWLNGKEYKCKVSNKALPLPEEKTISKAKGQPREPQVYTLPPSREEMTKNQVSLTCLVKGFYPSDIAVEWESNGQPENNYKTTPPVLDSDGSFFLYSKLTVDKSRWQQGNVFSCSVLHEALHSHYTQKSLSLSPGK light: not shown",0.52 µg/mL,0.05 µg/mL,6.2 µg/mL,0.06 µg/mL,0.13 µg/mL,0.19 µg/mL,11.6 µg/mL,0.41 µg/mL,> 50 µg/mL,0.04 µg/mL,0.25 µg/mL,3.59 µg/mL,0.05 µg/mL,2.79 µg/mL,0.06 µg/mL,> 50 µg/mL,> 50 µg/mL,16.1 µg/mL,0.32 µg/mL,0.73 µg/mL,HIV Neutralization Potency [21]: 0.79 µg/mL; HIV Neutralization Potency [22]: 1.09 µg/mL; HIV Neutralization Potency [23]: 0.61 µg/mL; HIV Neutralization Potency [24]: 0.16 µg/mL; HIV Neutralization Potency [25]: 1.43 µg/mL; HIV Neutralization Potency [26]: 0.87 µg/mL; HIV Neutralization Potency [27]: 35.2 µg/mL; HIV Neutralization Potency [28]: 0.19 µg/mL; HIV Neutralization Potency [29]: 27.1 µg/mL; HIV Neutralization Potency [30]: > 50 µg/mL; HIV Neutralization Potency [31]: 0.04 µg/mL; HIV Neutralization Potency [32]: 0.69 µg/mL; HIV Neutralization Potency [33]: 0.1 µg/mL; HIV Neutralization Potency [34]: > 50 µg/mL; HIV Neutralization Potency [35]: 2.19 µg/mL; HIV Neutralization Potency [36]: 1.42 µg/mL; HIV Neutralization Potency [37]: 0.19 µg/mL; HIV Neutralization Potency [38]: 1.17 µg/mL; HIV Neutralization Potency [39]: 0.6 µg/mL; HIV Neutralization Potency [40]: 3.78 µg/mL

# Reference: US20220089698A1, “ANTIBODIES THAT TARGET HIV GP120 AND METHODS OF USE” (published 2022)
